Results of unrelated studies side by side (data: NIAID ChemDB).

All rows: tests in culture; organism: Hepatitis C virus; read-out: inhibition

Rows are shuffled and stem from different studies. Two numbers with a dash give a range or band. Blank or dashed fields: not listed here. Inhibition is in % at the dose shown (toxicity tests: loss of growth or viability).

Cc1ccc2nc(Nc3cccc(Cl)c3)sc2c1 ; read by: luciferase ; cell line: Huh7 ; tested at: 5 µM ; value: 14%
O=C1NC(=Nc2nnc(-c3c(Cl)cccc3Cl)s2)SC1=Cc1cccc(F)c1 ; read by: luciferase ; strain or isolate: GT1b ; cell line: Huh7 ; tested at: 50 µM ; value: 97%
C[C@H]1[C@H]2[C@H](OC3O[C@H](CO)[C@@H](O)[C@H](O)[C@H]3O)OC=C(C(=O)O)[C@H]2C[C@@H]1O ; read by: entry ; tested at: 20 µg/mL ; value: 0%
O=C1CSC(=Nc2nnc(-c3ccccc3F)s2)N1 ; read by: luciferase ; strain or isolate: GT1b ; cell line: Huh7 ; tested at: 50 µM ; value: 0%
COc1ccccc1CN1CCC(C(=O)Nc2ccc(C3N=C4C=CC=CC4N3)cc2)CC1 ; read by: PCR ; strain or isolate: JFH-1 ; cell line: Huh7 ; tested at: 5 µM ; value: ≥70%
C[C@H]1[C@H](C)CC[C@]2(C(=O)O)CC[C@]3(C)C(=CC[C@@H]4[C@@]5(C)CC[C@H](O)C(C)(C)[C@@H]5CC[C@]43C)[C@H]12 ; read by: luciferase / entry ; cell line: Huh7 ; tested at: 1 µM ; value: 13.8%
COC(=O)C1=CO[C@@H](O[C@@H]2O[C@H](CO)[C@@H](O)[C@H](O)[C@H]2O)[C@@H]2[C@@H](C)[C@@H](O)C[C@H]12 ; read by: entry ; tested at: 20 µg/mL ; value: 0%
Nc1ncnc2c1ncn2[C@@H]1C2C[C@@]2(CO)C(O)C1(O)CF ; read by: replicon ; cell line: Huh7 ; tested at: 100 µM ; value: 0%
COc1cc(Cc2cnc(/N=C3\C(=O)N(CN4CCCC4)c4ccc(Br)cc43)nc2N)cc(OC)c1OC ; read by: replicon ; cell line: Huh7 ; tested at: 50 µg/mL ; value: 0%
Cc1ccc2nc(Nc3cccc([N+](=O)[O-])c3)sc2c1 ; read by: luciferase ; cell line: Huh7 ; tested at: 5 µM ; value: 32%
COc1cccc(CN2CCC(C(=O)Nc3cccc(-c4cccc(F)c4)c3)CC2)c1O ; read by: PCR ; strain or isolate: JFH-1 ; cell line: Huh7 ; tested at: 5 µM ; value: ≥40%
O=C1N/C(=N\c2nnc(-c3ccc(Cl)cc3)s2)S/C1=C\c1ccccc1Cl ; read by: MTS ; cell line: Huh7.5-FGR-JC1-Rluc2A ; tested at: 100 µM ; value: 0%
O=c1[nH]cnc2c1ncn2[C@@H]1C2C[C@@]2(CO)C(O)C1(O)CO ; read by: replicon ; cell line: Huh7 ; tested at: 100 µM ; value: 0%
C[C@@H]1[C@H]2[C@H](O[C@@H]3O[C@H](CO)[C@@H](O)[C@H](O)[C@H]3O)OC=C(C(=O)O)[C@H]2C[C@@H]1O ; read by: entry ; tested at: 20 µg/mL ; value: 0%
Cc1cc(C)cc(Nc2nc3ccc(C)cc3s2)c1 ; read by: luciferase ; cell line: Huh7 ; tested at: 5 µM ; value: 45%
COc1cc(Cc2cnc(/N=C3\C(=O)N(CN4CCN(c5cccc(Cl)c5)CC4)c4ccc(Br)cc43)nc2N)cc(OC)c1OC ; read by: replicon ; cell line: Huh7 ; tested at: 50 µg/mL ; value: 20%
COc1cc(/C=C/C(=O)CC(=O)/C=C/c2ccc(O)c(OC)c2)ccc1O ; read by: luciferase / reporter gene ; cell line: Huh7/Rep-Feo cells ; tested at: 10 µM ; value: 40–60%
O=c1[nH]cnc2c1sc(=S)n2Cc1ccccc1 ; read by: luciferase / reporter gene ; strain or isolate: GT1b ; cell line: Huh7 ; tested at: 50 µM ; value: 23%
CCCC(NC(=O)[C@@H]1C2CCC(=O)C2CN1C(=O)[C@@H](NC(=O)[C@@H](NC(=O)c1cnccn1)C(C)C)C(C)C)C(=O)C(=O)Nc1ccccc1 ; tested at: 25 µM ; value: 0%
COc1cccc(-c2ccccc2NC(=O)C2CCN(Cc3nc(C)c(C)nc3C)CC2)c1 ; read by: PCR ; strain or isolate: JFH-1 ; cell line: Huh7 ; tested at: 5 µM ; value: ≥40%
O=C1NC(=Nc2nnc(-c3cccc(F)c3)s2)SC1=Cc1c(Cl)cccc1Cl ; read by: luciferase ; strain or isolate: GT1b ; cell line: Huh7 ; tested at: 50 µM ; value: 77%
COC(=O)C1=CO[C@@H](O)[C@@H]2C(CO)=CC[C@H]12 ; read by: entry ; tested at: 20 µg/mL ; value: 17.1%
C=C(C)[C@@H]1CC[C@]2(C(=O)O)CC[C@]3(C)[C@H](CC[C@@H]4[C@@]5(C)CC[C@H](O)C(C)(C)[C@@H]5CC[C@]43C)[C@@H]12 ; read by: luciferase / entry ; cell line: Huh7 ; tested at: 5 µM ; value: 65.2%
COc1cc(Cc2cnc(/N=C3\C(=O)N(CN4CCN(c5ccccn5)CC4)c4ccc(Br)cc43)nc2N)cc(OC)c1OC ; read by: replicon ; cell line: Huh7 ; tested at: 50 µg/mL ; value: 16%
Cc1ccc2nc(Nc3cc(O)cc([N+](=O)[O-])c3)sc2c1 ; read by: luciferase ; cell line: Huh7 ; tested at: 20 µM ; value: 66%
CC1(C)CC[C@]2(C(=O)O)[C@H](O)C[C@]3(C)C(=CC[C@@H]4[C@@]5(C)CC[C@H](O)C(C)(C)[C@@H]5CC[C@]43C)[C@@H]2C1 ; read by: luciferase / entry ; cell line: Huh7 ; tested at: 5 µM ; value: 77.7%
COC(=O)C1=CO[C@@H](O)[C@@H]2[C@H](C)[C@@H](O)C[C@H]12 ; read by: entry ; tested at: 20 µg/mL ; value: 0.4%
O=C1NC(=Nc2nnc(-c3ccccc3F)s2)SC1=Cc1cccc(F)c1 ; read by: luciferase ; strain or isolate: GT1b ; cell line: Huh7 ; tested at: 50 µM ; value: 74%
CC(=O)c1ccc(NC(=O)C2=c3nc(C)[nH]c(=O)c3=NC2)cc1 ; read by: luciferase / reporter gene ; strain or isolate: GT1b ; cell line: Huh7 ; tested at: 50 µM ; value: 0%
COc1nc(N)nc2c1ncn2[C@@H]1O[C@H](COP(=O)(N[C@@H](C)C(=O)OCC(C)(C)C)Oc2cccc3ccccc23)[C@@H](O)[C@@]1(C)O ; read by: PCR ; strain or isolate: 1a ; conditions: 24 h ; cell line: Huh7 ; tested at: 0.042 µM ; value: 90%
Cc1c(C(=O)NN2CCCCC2)nn(-c2ccc(Cl)cc2Cl)c1-c1ccc(I)cc1 ; read by: PCR ; strain or isolate: JFH-1 ; cell line: Huh7 ; tested at: 10 µM ; value: 60–70%
COc1ccc(N2CCN(CN3C(=O)/C(=N\c4ncc(Cc5cc(OC)c(OC)c(OC)c5)c(N)n4)c4cc(Br)ccc43)CC2)cc1 ; read by: replicon ; cell line: Huh7 ; tested at: 50 µg/mL ; value: 17%
O=C(O)CCn1ncc2c(=O)[nH]cnc21 ; read by: luciferase / reporter gene ; strain or isolate: GT2a ; cell line: Huh7.5 ; tested at: 50 µM ; value: 85%
COc1cccc(CN2CCC(C(=O)Nc3ccc(-c4nc5ccccc5[nH]4)cc3)CC2)c1 ; read by: PCR ; strain or isolate: JFH-1 ; cell line: Huh7 ; tested at: 5 µM ; value: ≥40%
CN(C)CCCn1cnc2c(=O)oc3ccccc3c21 ; read by: luciferase / reporter gene ; strain or isolate: GT2a ; cell line: Huh7.5 ; tested at: 50 µM ; value: 19%
[N-]=[N+]=NCC1(O)C(O)[C@]2(CO)CC2[C@H]1n1cnc2c(N)ncnc21 ; read by: replicon ; cell line: Huh7 ; tested at: 100 µM ; value: 0%

A second listing of 4 rows from above:

smiles,read by,strain or isolate,conditions,cell line,tested at,value
O=C1NC(=Nc2nnc(-c3cccc(F)c3)s2)SC1=Cc1c(Cl)cccc1Cl,luciferase,GT1b,,Huh7,50 µM,77%
Nc1ncnc2c1ncn2[C@@H]1C2C[C@@]2(CO)C(O)C1(O)CF,replicon,,,Huh7,100 µM,0%
COC(=O)C1=CO[C@@H](O[C@@H]2O[C@H](CO)[C@@H](O)[C@H](O)[C@H]2O)[C@@H]2[C@@H](C)[C@@H](O)C[C@H]12,entry,,,,20 µg/mL,0%
CC(=O)c1ccc(NC(=O)C2=c3nc(C)[nH]c(=O)c3=NC2)cc1,luciferase / reporter gene,GT1b,,Huh7,50 µM,0%